{"source": "patent US5665357", "about": "“Antibodies recognizing tumor associated antigen CA 55.1” (dated 1997)", "target": "tumour associated antigen CA55.1 (human (COLO 205 human colorectal carcinoma cell line))", "data": [{"substance": "55.1:ricin A immunotoxin (antibody 55.1 conjugated to recombinant ricin A) (from UniProt P02879)", "values": [{"measurement": "IC50 against COLO 205 cells (cytotoxicity)", "result": 10, "unit": "pM"}]}]}
